These are literature values, as cited in paper PMC9054008 (Science Advances, 2022).

Amino acid sequences for entries named in this document (tags omitted). A change or cut given only in a name is not applied to a line headed by its entry.
UniProt P14434, whole entry, looked up: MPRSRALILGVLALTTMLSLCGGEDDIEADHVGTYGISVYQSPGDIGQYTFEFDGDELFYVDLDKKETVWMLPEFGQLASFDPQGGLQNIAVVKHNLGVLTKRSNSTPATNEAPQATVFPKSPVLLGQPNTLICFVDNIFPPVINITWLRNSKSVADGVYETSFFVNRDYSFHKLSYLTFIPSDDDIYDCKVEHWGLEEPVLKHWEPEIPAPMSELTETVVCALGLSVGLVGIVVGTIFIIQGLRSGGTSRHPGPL
UniProt P14483: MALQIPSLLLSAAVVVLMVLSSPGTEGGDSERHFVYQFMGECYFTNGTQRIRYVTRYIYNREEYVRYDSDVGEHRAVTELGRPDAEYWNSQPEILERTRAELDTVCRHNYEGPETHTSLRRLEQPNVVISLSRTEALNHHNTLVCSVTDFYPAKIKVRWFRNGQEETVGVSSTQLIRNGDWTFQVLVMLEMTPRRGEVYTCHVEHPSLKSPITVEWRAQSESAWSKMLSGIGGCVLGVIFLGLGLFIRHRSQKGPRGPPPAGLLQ

The IC50 is the point on the concentration scale where inhibition reaches its midpoint.

For this data set, the target named is I-Ab (Mus musculus, UniProt P14434+P14483). Conditions: cited from earlier work.

With FSLSAAVKAGASLID, the half-maximal inhibitory concentration (IC50) is 638 nM.
